Measurements published in paper PMC10432985, “Different tau fibril types reduce prion level in chronically and de novo infected cells” (The Journal of Biological Chemistry, 2023).

Experiments:
[1] = biological target: tau K18 fibrils (human tau amino acids 244-372) (human, UniProt P10636-8 244-372)
[2] = biological target: tau 244-378 fibrils (human tau amino acids 244-378) (human, UniProt P10636-8 244-378)

B1: recombinant mouse PrP(23-231) (natural protein)
chain: not shown
B1 was tested, and the EC50 [1] was 103 nM and the EC50 [2] was 174 nM.
